From patent US20050079180A1, “Manipulatin of oocyte maturation and male germ cell survival” (priority 2003, published 2005)

System: testis
Assay type: in vivo, rat
Conditions: co-treatment with GnRH antagonist, five days; FIG. 4A
Experimental: FIGS. 4A-D. Treatment with hCG increased INLS3 expression whereas treatment with INSL3 suppressed testis germ cell apoptosis induced by a GnRH antagonist. A) Changes in testis and other organ weights following treatment with the GnRH antagonist with or without INSL3 or hCG. Immature rats at 28 days of age were treated daily with a GnRH antagonist (AN; Antagon, 25 μg/day) with or without hCG (75 IU/day) or synthetic rat INSL3 (2 μg, twice daily) for five days before organ removal. B) Northern blot analyses of testis INSL3 mRNA levels in rats treated with the GnRH antagonist with or without hCG. C) Analysis of apoptotic DNA fragmentation in testes using 3′-end DNA labeling with the terminal transferase, followed by gel fractionation and autoradiography. D) In situ staining of apoptotic DNA fragmentation in seminiferous tubules using the TUNNEL method. Positive signals are evident in some primary spermatocytes in control animals (panel d, light arrows) whereas treatment with the GnRH antagonist (AN) led to additional signals in meiotic germ cells (panel e, heavy arrows).
Male Sprague-Dawley rats at 28 days of age were treated subcutaneously with GnRH antagonist (250 μg/kg/day) to suppress pituitary gonadotropin secretion. […] Animals were killed 5 days after initial treatment and organ weight determined. […]

## hCG: an agonist of LH; from A.P.L, Ayerst Laboratories
  effect on testis weight decrease caused by GnRH antagonist: partially blocked
